Laboratory results taken from patent publication US20090318341A1 (Amgen, published 2009).

B1: FcLoop-G2-OSK-G2 (Fc fusion)
chain: MDKTHTCPPCPAPELLGGPSVFLFPPKPKDTLMISRTPEVTCVVVDVSHEDPEVKFNWYVDGVEVHNAKTKPREEQYNSTYRVVSVLTVLHQDWLNGKEYKCKVSNKALPAPIEKTISKAKGQPREPQVYTLPPSRDELGGGVIINVKCKISRQCLEPCKKAGMRFGKCMNGKCHCTPKGGTKNQVSLTCLVKGFYPSDIAVEWESNGQPENNYKTTPPVLDSDGSFFLYSKLTVDKSRWQQGNVFSCSVMHEALHNHYTQKSLSLSPGK
B2: FcLoop-G4-OSK-G2 (Fc fusion)
chain: MDKTHTCPPCPAPELLGGPSVFLFPPKPKDTLMISRTPEVTCVVVDVSHEDPEVKFNWYVDGVEVHNAKTKPREEQYNSTYRVVSVLTVLHQDWLNGKEYKCKVSNKALPAPIEKTISKAKGQPREPQVYTLPPSRDELGGGGGVIINVKCKISRQCLEPCKKAGMRFGKCMNGKCHCTPKGGTKNQVSLTCLVKGFYPSDIAVEWESNGQPENNYKTTPPVLDSDGSFFLYSKLTVDKSRWQQGNVFSCSVMHEALHNHYTQKSLSLSPGK
B3: FcLoop-G2-ShK-G2 (Fc fusion)
chain: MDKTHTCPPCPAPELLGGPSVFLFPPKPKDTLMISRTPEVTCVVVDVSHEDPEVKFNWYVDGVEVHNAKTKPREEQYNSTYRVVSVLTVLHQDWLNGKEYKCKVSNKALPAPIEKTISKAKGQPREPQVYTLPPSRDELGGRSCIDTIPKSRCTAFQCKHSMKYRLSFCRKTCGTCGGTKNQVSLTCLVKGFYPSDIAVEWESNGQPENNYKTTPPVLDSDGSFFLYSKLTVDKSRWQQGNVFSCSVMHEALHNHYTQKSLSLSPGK
B4: 20k PEG-L2-6H-L3-CH2-L10-OsK1(1-38) (Fc fusion)
chain: MGGHHHHHHGGGPSVFLFPPKPKDTLMISRTPEVTCVVVDVSHEDPEVKFNWYVDGVEVHNAKTKPREEQYNSTYRVVSVLTVLHQDWLNGKEYKCKVSNKALPAPIEKTISGGGGSGGGGSGVIINVKCKISRQCLEPCKKAGMRFGKCMNGKCHCTPK
B5: L2-6H-L3-CH2-L10-OsK1(1-38) (Fc fusion)
chain: MGGHHHHHHGGGPSVFLFPPKPKDTLMISRTPEVTCVVVDVSHEDPEVKFNWYVDGVEVHNAKTKPREEQYNSTYRVVSVLTVLHQDWLNGKEYKCKVSNKALPAPIEKTISGGGGSGGGGSGVIINVKCKISRQCLEPCKKAGMRFGKCMNGKCHCTPK

biological target: human Kv1.3 voltage-gated potassium channel (human, UniProt P22001 1-575); test: cell-based or functional assay

With B1 as the binder, how does the “WB/IFNg (IC50, nM), human whole blood assay” value (from here on “WB/IFNg (IC50, nM)”) read?
Its value is 0.056 nM.

What about the “WB/IL-2 (IC50, nM), human whole blood assay” value of the same binder?
Its value is 0.028 nM.

B2 was tested. Which “WB/IFNg (IC50, nM)” value did it give?
The value was 0.195 nM.

And the “WB/IL-2 (IC50, nM), human whole blood assay” value?
Its value is 0.15 nM.

What does the source list for B3?
WB/IFNg (IC50, nM), human whole blood assay: 0.119 nM; WB/IL-2 (IC50, nM), human whole blood assay: 0.109 nM

For B4, which “WB/IFNg (IC50, nM)” value is on record?
The value was 50.1 nM.

With B5 as the binder, how does the “WB/IFNg (IC50, nM)” value read?
Its value is 55.2 nM.
